Laboratory results reported in the supplement of paper PMC9931576.
Human monoclonal antibodies against the spike receptor-binding domain (heavy:light variable regions). IC50 against pseudoviruses bearing the spike of naturally observed variants; lower = stronger; >10 µg/ml means not reached at the top dose. No active / inactive call. The stated detection limit is 0.0005 µg/ml; values near or below 0.001 µg/ml lie at the floor of the assay.

B1: BD57-0302 (protein)
chain 1: EVQLVQSGAEVKKPGESLKISCKGSGYTFARYWIGWVRQMPGKGLEWMGIIYSGDSDARYSPSFQGQVTISADKSISTAYLQWSSLRASDTAMYYCARTDTTDWFDYWGQGTLVTVSS
chain 2: EIVLTQSPATLSLSPGERATLSCRASQSVHNFLAWYQQKPGQAPRLLIYDASDRATGIPARFSGSGSGTDFTLTISSLEPEDFAVYYCQQRSNFGGGTKVEIK
B2: BD57-0314 (protein)
chain 1: QVQLVQSGAEVKKPGASVMVSCKASGNTLTNYYIHWVRQAPGQGLEWMGIINPSGRSTTYAQKFQDRVTMTGDTSTSTVYMDLSSLRSEDTAVYYCARGGIVPDARTPFDIWGQGTMVTVSS
chain 2: DIQMTQSPSTLSASVGDRVTITCRASQSISRSLAWYQQKPGEAPKLLIYKASILESGVPSRFSGSGSGAEFTLTISSLQPDDFATYYCQHYNLYSTFGQGTKVEIK
B3: BD57-0330 (protein)
chain 1: QVQLVQSGAEVTTPGASVKVSCKASGYTFTDYHIYWVRQAPGQGLEWMGWINPNSGGTNYAQKFQGRVTMTRDTSISTAYMELSSLRSDDTAVYYCARGELELRTYYYYMDVWGKGTTVTVSS
chain 2: SYVLTQPPSVSVAPGKTARITCGGNNIGSKSVNWYQQKPGQAPVLVIHSDSDRPSGIPERLSGSNSGNTATLTISRVGAGDEADYYCQVWDISSDHVIFGGGTKLTVL
B4: BD57-0315 (protein)
chain 1: EVQLVESGGGLLQPGRSLKLSCAASGFTFDDYTMHWVRQPPGKGLEWVSGISWNGGVIGYADSVRGRFIIARDNAKKSLYLQMRSLRPEDTALYYCAKDTMVREGYNYYYGMDVWGQGTTVTVSS
chain 2: QSVLTQPPSVSGAPGQRVTISCTGSSSNIGAGYDVHWYQQLPGTAPKLLIYGNNNRPSGVPDRFSGSKSGTSASLAITGLQAEDEADYYCQSYDSSLSGYVFGTGTKVTVL
B5: BD57-0310 (protein)
chain 1: QVQLVESGGGVVQPGRSLRLSCAASGFTFSNYDMHWVRQAPGKGLEWVAVISKDGSKKYNADSVKGRFTISRDNSKNTVYLQMNSLRAEDTGVYYCARDLDPYSYGYFDSWGQGTLVTVSS
chain 2: EIVMTQSPATLSVSPGERATLSCRASQSVSSNLAWYQQNPGQAPRLLIYGASTRATGIPARFSGSGSGTEFTLTISSLQSEDFVVYYCQQYYYWPSFGPGTKVDIK
B6: BD57-0322 (protein)
chain 1: EVQLVESGGGLVQPGGSLRLSCAASGFSFSGYDMHWVRQATGKGLEWVSGIGTAGDTYYSGSVKGRFTISRENAKNSLNLQMNNLRAGDTAVYYCARGGSSNWYWYFDLWGRGTLVTVSS
chain 2: DIQMTQSPSSLSASVGDRVSITCRASQSINTYLNWYQQKPGRAPKLLIYAASSLQSGVPSRFSGSGSGTDYTLTISSLQPEDFATYYCQQGYSMPEVTFGQGTRLEIK

Molecular target: SARS-CoV-2 Omicron BA.1 spike pseudovirus
Experiment: pseudovirus neutralization IC50; higher = weaker neutralization
Description: (§1)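 Single-round VSV luciferase pseudovirus mixed with antibody dilutions for 1 h and put on Huh-7 cells for about a day; IC50 from the dose curve.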

Question: B1 was tested. Which “pseudovirus neutralization IC50” value did it give?
Answer: The value was 0.586 µg/mL.

Question: For B2, which “pseudovirus neutralization IC50” value is on record?
Answer: Its value is greater than 10 µg/mL.

Question: For B3, which “pseudovirus neutralization IC50” value is on record?
Answer: The value was 2.4 µg/mL.

Question: With B4 as the binder, how does the “pseudovirus neutralization IC50” value read?
Answer: The value was 0.0704 µg/mL.

Question: B5 was tested. Which “pseudovirus neutralization IC50” value did it give?
Answer: Its value is greater than 10 µg/mL.

Question: B6 was tested. Which “pseudovirus neutralization IC50” value did it give?
Answer: The value was greater than 10 µg/mL.

Molecular target: SARS-CoV-2 Omicron BA.2 spike pseudovirus
Experiment: as above
Description: as §1

Question: B1 was tested. Which “pseudovirus neutralization IC50” value did it give?
Answer: Its value is 0.557 µg/mL.

Question: B2 was tested. Which “pseudovirus neutralization IC50” value did it give?
Answer: The value was greater than 10 µg/mL.

Question: How did the “pseudovirus neutralization IC50” value turn out when B3 was run?
Answer: The value was 2.25 µg/mL.

Question: With B4 as the binder, how does the “pseudovirus neutralization IC50” value read?
Answer: The value was 0.0844 µg/mL.

Question: With B5 as the binder, how does the “pseudovirus neutralization IC50” value read?
Answer: The value was greater than 10 µg/mL.

Question: Which “pseudovirus neutralization IC50” value does the source give for B6 here?
Answer: Its value is greater than 10 µg/mL.

Molecular target: SARS-CoV-2 Omicron BA.2.75 spike pseudovirus
Experiment: as above
Description: as §1

Question: B1 was tested. Which “pseudovirus neutralization IC50” value did it give?
Answer: Its value is 1.14 µg/mL.

Question: With B2 as the binder, how does the “pseudovirus neutralization IC50” value read?
Answer: Its value is greater than 10 µg/mL.

Question: How did the “pseudovirus neutralization IC50” value turn out when B3 was run?
Answer: The value was 1.93 µg/mL.

Question: How did the “pseudovirus neutralization IC50” value turn out when B4 was run?
Answer: The value was 0.0617 µg/mL.

Question: How did the “pseudovirus neutralization IC50” value turn out when B5 was run?
Answer: Its value is greater than 10 µg/mL.

Question: Which “pseudovirus neutralization IC50” value does the source give for B6 here?
Answer: The value was greater than 10 µg/mL.

Molecular target: SARS-CoV-2 Omicron BA.5 spike pseudovirus
Experiment: as above
Description: as §1

Question: How did the “pseudovirus neutralization IC50” value turn out when B1 was run?
Answer: The value was 1.18 µg/mL.

Question: How did the “pseudovirus neutralization IC50” value turn out when B2 was run?
Answer: Its value is greater than 10 µg/mL.

Question: Which “pseudovirus neutralization IC50” value does the source give for B3 here?
Answer: Its value is greater than 10 µg/mL.

Question: Which “pseudovirus neutralization IC50” value does the source give for B4 here?
Answer: Its value is 0.433 µg/mL.

Question: B5 was tested. Which “pseudovirus neutralization IC50” value did it give?
Answer: Its value is greater than 10 µg/mL.

Question: Which “pseudovirus neutralization IC50” value does the source give for B6 here?
Answer: Its value is greater than 10 µg/mL.

Molecular target: SARS-CoV-2 Omicron BQ.1.1 spike pseudovirus
Experiment: as above
Description: as §1

Question: Which “pseudovirus neutralization IC50” value does the source give for B1 here?
Answer: Its value is 2.29 µg/mL.

Question: Which “pseudovirus neutralization IC50” value does the source give for B2 here?
Answer: Its value is greater than 10 µg/mL.

Question: B3 was tested. Which “pseudovirus neutralization IC50” value did it give?
Answer: Its value is greater than 10 µg/mL.

Question: How did the “pseudovirus neutralization IC50” value turn out when B4 was run?
Answer: Its value is greater than 10 µg/mL.

Question: How did the “pseudovirus neutralization IC50” value turn out when B5 was run?
Answer: The value was greater than 10 µg/mL.

Question: For B6, which “pseudovirus neutralization IC50” value is on record?
Answer: The value was greater than 10 µg/mL.

Molecular target: SARS-CoV-2 Omicron XBB spike pseudovirus
Experiment: as above
Description: as §1

Question: How did the “pseudovirus neutralization IC50” value turn out when B1 was run?
Answer: Its value is 2.01 µg/mL.

Question: For B2, which “pseudovirus neutralization IC50” value is on record?
Answer: The value was greater than 10 µg/mL.

Question: How did the “pseudovirus neutralization IC50” value turn out when B3 was run?
Answer: The value was 2.51 µg/mL.

Question: How did the “pseudovirus neutralization IC50” value turn out when B4 was run?
Answer: The value was greater than 10 µg/mL.

Question: Which “pseudovirus neutralization IC50” value does the source give for B5 here?
Answer: Its value is greater than 10 µg/mL.

Question: Which “pseudovirus neutralization IC50” value does the source give for B6 here?
Answer: Its value is greater than 10 µg/mL.

Molecular target: SARS-CoV-2 early D614G spike pseudovirus
Experiment: as above
Description: as §1

Question: With B1 as the binder, how does the “pseudovirus neutralization IC50” value read?
Answer: The value was 1.54 µg/mL.

Question: For B2, which “pseudovirus neutralization IC50” value is on record?
Answer: The value was greater than 10 µg/mL.

Question: With B3 as the binder, how does the “pseudovirus neutralization IC50” value read?
Answer: Its value is greater than 10 µg/mL.

Question: How did the “pseudovirus neutralization IC50” value turn out when B4 was run?
Answer: Its value is 0.0211 µg/mL.

Question: With B5 as the binder, how does the “pseudovirus neutralization IC50” value read?
Answer: Its value is greater than 10 µg/mL.

Question: Which “pseudovirus neutralization IC50” value does the source give for B6 here?
Answer: Its value is greater than 10 µg/mL.
